Measurements published in patent US5821046.

How the values were obtained:
[1] = biological target: HIV-1 Tat (Human immunodeficiency virus 1) (UniProt P04608); assay: EMSA; details: wild-type affinity; purified recombinant protein; variant of HIV-1 TAR RNA 59-mer (UUU bulge)
[2] = biological target: HIV-1 Tat (Human immunodeficiency virus 1) (UniProt P04608); assay: competition with a labelled probe; details: purified recombinant protein; label: 32P

“GGGUUCCCUAGUUAGACCAGAUUUGAGCCUGGGAGCUCUCUGGCUAACCAGAGAGACCC [ASS chimera]”: binds [1].

“GGGUCUCUCUGGUUAGACCAGAUUUGAGCUCCCAGGCUCUCUGGCUAACUAGGGAACCC [SSA chimera]”: binds [1].

Sequence “GGGUCUCUCUGGUUAGACCAGAUUUGAGCCUGGGAGCUCUCUGGCUAACUAGGGAACCC [HIV-1 TAR RNA 59-mer (UUU bulge)]” has an IC50 [2] of 64 nM.

The exact form of at least one protein or probe is not confirmed.
